Laboratory results reported in ChEMBL document CHEMBL1139785, “Synthesis of novel HIV protease inhibitors (PI) with activity against PI-resistant virus” (Bioorg Med Chem Lett, 2007).
pIC50: −log10 of the molar value.

Molecular target: Protease (Human immunodeficiency virus 1, UniProt Q9YQ12)
Test: Inhibition of wild type HIV1 NL4-3 protease

Compound `CC(C)(C)NC(=O)[C@@H]1CN(Cc2cccnc2)CCN1C[C@@H](O)CC(Cc1ccccc1)C(=O)N[C@H]1c2ccccc2C[C@H]1O` (single isomer, unassigned) [INDINAVIR] has a pIC50 of 9.22.
